Results of unrelated studies side by side (data: NIAID ChemDB).

Common to all: enzyme or target tests; species: Pneumocystis carinii

Inhibition is in % at the dose shown (toxicity tests: loss of growth or viability).

smiles	target	method	read-out	dose	value
Cc1cc(NS(=O)(=O)c2ccc(N)cc2)no1	DHPS	-	Ki	-	0.0075 µM
Nc1ccc(S(=O)(=O)c2ccc(N)cc2)cc1	Oxidosqualene cyclase	HPLC	Ki	-	9 µM
COCCOCCOCCOc1c(OC)cc(Cc2cnc(N)nc2N)cc1OC	DHFR	-	IC50	-	36 µM
CC1(C)N=C(N)N=C(N)N1c1ccc(C(C#N)CCCc2ccccc2)cc1	DHFR	-	IC50	-	6.1 µM
Cc1cc(NS(=O)(=O)c2ccc(N)cc2)no1	Oxidosqualene cyclase	HPLC	Ki	-	59 µM
Nc1nc(N)c2nc(CN(CCO)c3ccc(C(=O)NC(CCC(=O)O)C(=O)O)cc3)cnc2n1	DHFR	-	IC50	-	0.00035 µM
COc1cc(Cc2cc3[nH]c(N)nc(N)c3c3ccnc23)cc(OC)c1	DHFR	-	IC50	-	0.039 µM
NC(=S)NS(=O)(=O)c1ccc(N)cc1	DHPS	-	Ki	-	0.0165 µM
COc1cc(Cc2cnc(N)nc2N)cc(OC)c1SC	DHFR	-	IC50	-	19 µM
Nc1nc(N)c2nc(CSc3ccccc3)cnc2n1	DHFR	-	IC50	-	9.5 µM
Nc1ccc(S(=O)(=O)Nc2ccc(C(=O)O)cc2)cc1	DHPS	-	IC50	-	0.26 µM
COc1cc2c(c(OC)c1OC)CCN2c1cnc(N)nc1N	DHFR	-	IC50	-	87 µM
CCc1nc(NS(C)(=O)=O)nc(NS(C)(=O)=O)c1-c1ccc(Cl)cc1	DHFR	-	IC50	-	1.4 µM
CCOC(=O)c1ccc(NS(=O)(=O)c2ccc(NC(C)=O)cc2)cc1	DHPS	-	IC50	-	>10 µM
Nc1nc(N)c(-c2ccc(Cl)c(Cl)c2)c(/C=C/Cc2ccccc2)n1	DHFR	-	IC50	-	0.5 µM
N=C(N)c1ccc(OCCCCCOc2ccc(C(=N)N)cc2)cc1	Dihydroorotate dehydrogenase	-	inhibition	10 µM	0%
COc1cc(NS(=O)(=O)c2ccc(N)cc2)nc(OC)n1	DHPS	-	IC50	-	0.025 µM
CN(Cc1cnc2nc(N)nc(N)c2n1)c1c(Cl)cc(C(=O)N[C@@H](CCC(=O)O)C(=O)O)cc1Cl	DHFR	-	IC50	-	0.000035 µM

ICn: concentration for n% inhibition. Rows are shuffled and stem from different studies. Blank or dashed fields: not listed here.